Results deposited as PubChem BioAssay AID504761 (Drosophila RNAi Screening Center, 2011)

Aim: 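Insect host genes that dengue virus relies on to spread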 (primary screen)
Cells: D.Mel-2 cells from Drosophila
Knock-down reagent: long dsRNA against Drosophila genes
Conditions: infection with dengue virus type 2; dose and infection time not stated
Read-out: 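Cells stained for dengue envelope protein and imaged; percent of infected cells per well on duplicate plates, ranked by infection, with stained nuclei counted for cell number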
Reading the numbers: infection score: higher = more virus-infected cells; cell count: higher = more cells in the well
Call rule: 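Very low infection ranking in both replicate wells (chance probability at most 0.065), then a retest showing infection dropped 1.5-fold or more at p below 0.05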
Meaning of the calls: active = confirmed: knock-down lowers infection; inactive = not picked or not confirmed
In all, the deposit lists about 22,000 reagents; below is an unselected part of those that have a named target and a result. In the full data, 116 (0.52%) were called active. 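Calls depend on retest data that are not deposited; infection was ranked per plate without normalising between plates; the unit of the infection score is not given.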 Raw values are not corrected between plates. A plus sign joins genes that one reagent is predicted to hit. The record does not give: the amount of reagent, the time to read-out.

no.	gene	dsRNA	infection score, replicate 1	infection score, replicate 2	cell count, replicate 1	cell count, replicate 2	activity call
1	tai	DRSC02673	2.42	3.41	6152	6105	inactive
2	CG15546	DRSC15084	3.64	2.35	5997	6798	inactive
3	CG15546	DRSC22831	2.16	1.07	5983	6851	inactive
4	CG15546	DRSC28899	11	16.2	6341	5829	inactive
5	CG1835	DRSC20560	4.38	1.21	5942	5930	inactive
6	Prosalpha2	DRSC16798	0.65	1.08	464	558	inactive
7	Prosalpha2	DRSC28078	0.44	1.34	456	1348	inactive
8	CG15888	DRSC15125	12.4	14.4	5746	6529	inactive
9	CG15888	DRSC26530	1.03	6.37	6044	5648	inactive
10	TMEM216	DRSC16378	1.58	8.74	5878	6110	inactive
11	TMEM216	DRSC25583	6.53	7.14	245	6584	inactive
12	CG6805	DRSC07011	13.7	17.6	6173	6102	inactive
13	CG6805	DRSC29352	16.1	9	3524	5524	inactive
14	janA	DRSC16972	1.55	8.42	6462	2935	inactive
15	janA	DRSC26590	0.96	2.39	6267	6019	inactive
16	CG5446	DRSC02862	5.13	3.54	6296	6694	inactive
17	B52	DRSC14121	3.49	1.21	6330	6844	inactive
18	B52	DRSC25482	3.41	6.08	5508	5378	inactive
19	CG11563	DRSC14327	6.74	2.51	5892	6425	inactive
20	CG15118	DRSC06540	3.64	6.17	6737	6399	inactive
21	Vps50	DRSC06910	14.6	10.2	3952	2562	inactive
22	CG43345	DRSC03164	11.4	24.5	6030	5681	inactive
23	CG15696	DRSC15118	0.97	1.04	6568	6614	inactive
24	CG15696	DRSC25170	1.09	5.54	6688	6657	inactive
25	Brca2	DRSC04219	2.28	3.68	7003	6824	inactive
26	Brca2	DRSC04220	6.33	4.84	6630	6548	inactive
27	CG17575	DRSC06682	7.22	24.5	6956	4887	inactive
28	CG17575	DRSC26534	1.74	4.44	6509	5724	inactive
29	CG17982	DRSC18143	2.38	1.66	6652	6368	inactive
30	Brms1	DRSC19896		9.59	438	4858	inactive
31	CG12729	DRSC17884	7	25	3114	5084	inactive
32	CG12729	DRSC27092	7.53	13	6670	6752	inactive
33	CG11630	DRSC03696	2.34	4.91	6797	6947	inactive
34	Buffy	DRSC05957	5.76	12.4	6633	6609	inactive
35	CG15927	DRSC19742	13.4	8.1	6259	6504	inactive
36	CG15927	DRSC28678	26.4	11.5	4685	3359	inactive
37	Ir75a	DRSC10188	2.53	1.42	6922	6420	inactive
38	CtsL3	DRSC12171	7.05	19.8	1490	6202	inactive
39	CtsL3	DRSC27036	2.47	2.69	6586	6203	inactive
40	Ugt35B1	DRSC16893	13.7	12.8	6551	6567	inactive
41	Ugt35B1	DRSC27518	8.06	5.64	6747	6634	inactive
42	eIF4E3	DRSC10952	7.35	11.4	6367	6445	inactive
43	Mettl3	DRSC15921	3.04	3.66	6318	6374	inactive
44	Mettl3	DRSC27423	17.9	8.82	6437	6352	inactive
45	pkaap	DRSC01925	18.2	0.88	5685	6573	inactive
46	raskol	DRSC19202	0.23	0.36	6093	6585	inactive
47	raskol	DRSC19731	2.09	2.34	6363	6420	inactive
48	raskol	DRSC19964	4.12	17.7	6498	4784	inactive
49	raskol	DRSC21788	2.8	1.8	6397	6551	inactive
50	Tip60	DRSC18661	6.19	7.74	5900	5917	inactive
51	CG43707	DRSC00280	2.68	0.62	6453	6098	inactive
52	CG43707	DRSC22869	1.12	1.86	5692	5538	inactive
53	CG43707	DRSC25146	2.69	6.27	6102	6318	inactive
54	Etfb	DRSC16324	1.23	2.48	6339	6663	inactive
55	eIF4H1	DRSC20276	30.7	6.39	5312	6074	inactive
56	CNT1	DRSC06082	12.5	5.65	5832	6056	inactive
57	CNT1	DRSC29671	0.22	8.1	456	1876	inactive
58	Apt1	DRSC10348	2.54	1.77	6216	6493	inactive
59	AstA-R2	DRSC14171	2.12	4.85	6091	6295	inactive
60	AstA-R2	DRSC24820	6.08	1.97	6558	6292	inactive
61	CG31743 + CG34313	DRSC02781	2.75	3.82	6288	6329	inactive
62	CG31743 + CG34313	DRSC02782	1.19	3.41	6781	6661	inactive
63	CG11951	DRSC14442	2.62	1.39	6537	7219	inactive
64	CG11951	DRSC25645	13.4	12.6	6884	6586	inactive
65	Npc1b	DRSC20488	7.3	3.59	5867	5737	inactive
66	Spp	DRSC00328	0.92	0.53	6110	6612	inactive
67	ste24b	DRSC07315	5.25	20.1	1544	6307	inactive
68	ste24b	DRSC24340	2.57	3.77	6768	6650	inactive
69	velo	DRSC08841	1.28	0.33	3293	2754	inactive
70	velo	DRSC09698	3.41	12	3524	2483	inactive
71	velo	DRSC27497	4.46	8.8	4399	4089	inactive
72	dimm	DRSC03100			415	451	inactive
73	CG5267	DRSC06928	9.56	12.4	6422	6763	inactive
74	ND-20	DRSC20164	22.4	4.88	3330	6737	inactive

Ordered by “infection score, replicate 2” (descending): some entries from above
gene	dsRNA	infection score, replicate 1	infection score, replicate 2	cell count, replicate 1	cell count, replicate 2	activity call
ste24b	DRSC07315	5.25	20.1	1544	6307	inactive
CG11951	DRSC25645	13.4	12.6	6884	6586	inactive
velo	DRSC09698	3.41	12	3524	2483	inactive
velo	DRSC27497	4.46	8.8	4399	4089	inactive
CG31743 + CG34313	DRSC02781	2.75	3.82	6288	6329	inactive
ste24b	DRSC24340	2.57	3.77	6768	6650	inactive
Npc1b	DRSC20488	7.3	3.59	5867	5737	inactive
CG31743 + CG34313	DRSC02782	1.19	3.41	6781	6661	inactive
AstA-R2	DRSC24820	6.08	1.97	6558	6292	inactive
CG11951	DRSC14442	2.62	1.39	6537	7219	inactive
Spp	DRSC00328	0.92	0.53	6110	6612	inactive
velo	DRSC08841	1.28	0.33	3293	2754	inactive
